Laboratory results: patent publication US20240109955A1 (published 2024)
Changes are numbered by the printed parent chain. Read-outs that look alike come from different tables or passages of the source.

How the values were obtained:
Assay in all cases: cell-based or functional assay
[1] = molecular target: SARS-CoV-2 Omicron BA.4/5 spike protein (SARS-CoV-2)
[2] = molecular target: SARS-CoV-2 Omicron BQ.1 spike protein (SARS-CoV-2)
[3] = molecular target: SARS-CoV-2 Omicron BQ.1.1 spike protein (SARS-CoV-2)
[4] = molecular target: SARS-CoV-2 Omicron BA.2.75.2 spike protein (SARS-CoV-2)
[5] = molecular target: SARS-CoV-2 Omicron XBB spike protein (SARS-CoV-2)
[6] = molecular target: SARS-CoV-2 original Wuhan strain (WA1) spike protein (SARS-CoV-2, UniProt P0DTC2 14-1273)
[7] = molecular target: SARS-CoV-2 D614G spike protein mutant (SARS-CoV-2, UniProt P0DTC2 14-1273)
[8] = molecular target: SARS-CoV-2 spike protein, original Wuhan strain (WA1) (SARS-CoV-2, UniProt P0DTC2 14-1273)
[9] = molecular target: SARS-CoV-2 spike protein, D614G spike protein mutant (SARS-CoV-2, UniProt P0DTC2 14-1273)
[10] = molecular target: SARS-CoV-2 D614G spike protein mutant (SARS-CoV-2, UniProt P0DTC2 14-1273); remark: listed apart in the source

B1: E8 (antibody, V domains shown)
VH: QVTLRESGPALVKPTQTLTLTCTFSGFSLSTRGVCVSWIRQPPGKALEWLAFIDWDDDKYYNTSLKTRLTISKDTSKNQVVLTMTNVHPVDTATYYCARISSHHGSSWCTTFDYWGQGALVTVSA
VL: DTVMTQSPLSLPVTPGEPASISCRSSQSLLNSNGYNYLDWYVQKPGQSPQLLIYLGSNRASGVPDRFSGSGSGTDFTLKISRVEAEDVGVYYCMQPLQTPLFTFGPGTKVEIK
IC50, pseudovirus neutralization [1]: 0.00013 µg/mL | IC80, pseudovirus neutralization [1]: 0.00049 µg/mL | IC50, pseudovirus neutralization [2]: 0.124 µg/mL | IC80, pseudovirus neutralization [2]: 5.19 µg/mL | IC50, pseudovirus neutralization [3]: 0.496 µg/mL | IC80, pseudovirus neutralization [3]: 1.8 µg/mL | IC50, pseudovirus neutralization [4]: 0.00172 µg/mL | IC80, pseudovirus neutralization [4]: 0.0059 µg/mL | IC50, pseudovirus neutralization [5]: 0.0615 µg/mL | IC80, pseudovirus neutralization [5]: 0.705 µg/mL

B2: MX1023 (bispecific antibody)
chain: EIVMTQSPAILSVSPGERATLSCRASQSVAINLAWYQQKPGQAPRLLIYAASSRATGIPGRFSGSGSETNFTLTISSLQSGDFAVYYCQQYITWPPSYTFGQGTKLEIKGGSSGQTVVTQEPSFSVSPGGTVTLTCGLSSGSVSTAYFPSWYQQTPGQAPRTLIYGTNTRSSGVPDRFSGSILGNKAALTITGAQADDESDYYCVLYMGRGIVVFGGGTKLTVLGGGGSGGSGSGGGGSASGSGQVQLVESGGGVVQPGRSLRLSCAASGFTLSSYGMHWVRQAPGKGLEWVAVISYDGSNKYYVDSVKGRFTISRDNSKNTLYLQMNSLRAEDTAVYYCRWAYWELLPDYYYGMDVWGQGTTVTVSSGGSSGEVQLVESGGALIQPGGSLRLSCAASGIIVSANYMSWVRQAPGKGLEWVSVIYSGGSTFYADSVKGRFTISRDNSKNTLYLEMNSLRAEDTAVYYCARDAPILGVSDWGQGTLVTVSSASGGSGDKTHTCPPCPAPELLGGPSVFLFPPKPKDTLMISRTPEVTCVVVDVSHEDPEVKFNWYVDGVEVHNAKTKPREEQYNSYVVSVLTVLHQDWLNGKEYKCKVSNKALPAPIEKTISKAKGQPREPQVYTLPPSRDELTKNQVSLTCLVKGFYPSDIAVEWESNGQPENNYKTTPPVLDSDGSFFKKLTVDKSRWQQGNVFSCSVLHEALHSHYTQKSLSLSPG
IC50, pseudovirus neutralization [6]: 0.0153 µg/mL | IC80, pseudovirus neutralization [6]: 0.0824 µg/mL | IC80, pseudovirus neutralization [7]: 0.0406 µg/mL

B3: MX1024 (bispecific antibody)
chain: EIVMTQSPAILSVSPGERATLSCRASQSVAINLAWYQQKPGQAPRLLIYAASSRATGIPGRFSGSGSETNFTLTISSLQSGDFAVYYCQQYITWPPSYTFGQGTKLEIKGGSSGDTVMTQSPLSLPVTPGEPASISCRSSQSLLNSNGYNYLDWYVQKPGQSPQLLIYLGSNRASGVPDRFSGSGSGTDFTLKISRVEAEDVGVYYCMQPLQTPLFTFGPGTKVEIKGGGGSGGSGSGGGGSASGSGQVTLRESGPALVKPTQTLTLTCTFSGFSLSTRGVCVSWIRQPPGKALEWLAFIDWDDDKYYNTSLKTRLTISKDTSKNQVVLTMTNVHPVDTATYYCARISSHHGSSWCTTFDYWGQGALVTVSAGGSSGEVQLVESGGALIQPGGSLRLSCAASGIIVSANYMSWVRQAPGKGLEWVSVIYSGGSTFYADSVKGRFTISRDNSKNTLYLEMNSLRAEDTAVYYCARDAPILGVSDWGQGTLVTVSSASGGSGDKTHTCPPCPAPELLGGPSVFLFPPKPKDTLMISRTPEVTCVVVDVSHEDPEVKFNWYVDGVEVHNAKTKPREEQYNSYVVSVLTVLHQDWLNGKEYKCKVSNKALPAPIEKTISKAKGQPREPQVYTLPPSRDELTKNQVSLTCLVKGFYPSDIAVEWESNGQPENNYKTTPPVLDSDGSFFKKLTVDKSRWQQGNVFSCSVLHEALHSHYTQKSLSLSPG
IC50, pseudovirus neutralization [6]: 0.00176 µg/mL | IC80, pseudovirus neutralization [6]: 0.0157 µg/mL | IC80, pseudovirus neutralization [7]: 0.00816 µg/mL

B4: MX1022 (bispecific antibody)
chain: DTVMTQSPLSLPVTPGEPASISCRSSQSLLNSNGYNYLDWYVQKPGQSPQLLIYLGSNRASGVPDRFSGSGSGTDFTLKISRVEAEDVGVYYCMQPLQTPLFTFGPGTKVEIKGGSSGEIVMTQSPAILSVSPGERATLSCRASQSVAINLAWYQQKPGQAPRLLIYAASSRATGIPGRFSGSGSETNFTLTISSLQSGDFAVYYCQQYITWPPSYTFGQGTKLEIKGGGGSGGSGSGGGGSASGSGEVQLVESGGALIQPGGSLRLSCAASGIIVSANYMSWVRQAPGKGLEWVSVIYSGGSTFYADSVKGRFTISRDNSKNTLYLEMNSLRAEDTAVYYCARDAPILGVSDWGQGTLVTVSSGGSSGQVTLRESGPALVKPTQTLTLTCTFSGFSLSTRGVCVSWIRQPPGKALEWLAFIDWDDDKYYNTSLKTRLTISKDTSKNQVVLTMTNVHPVDTATYYCARISSHHGSSWCTTFDYWGQGALVTVSAASGGSGDKTHTCPPCPAPELLGGPSVFLFPPKPKDTLMISRTPEVTCVVVDVSHEDPEVKFNWYVDGVEVHNAKTKPREEQYNSYVVSVLTVLHQDWLNGKEYKCKVSNKALPAPIEKTISKAKGQPREPQVYTLPPSRDELTKNQVSLTCLVKGFYPSDIAVEWESNGQPENNYKTTPPVLDSDGSFFKKLTVDKSRWQQGNVFSCSVLHEALHSHYTQKSLSLSPG
IC80, pseudovirus neutralization [7]: 0.0133 µg/mL

B5: MX1069 (other)
chain 1: QTVVTQEPSFSVSPGGTVTLTCGLSSGSVSTAYFPSWYQQTPGQAPRTLIYGTNTRSSGVPDRFSGSILGNKAALTITGAQADDESDYYCVLYMGRGIVVFGGGTKLTVLGGSSGEIVLTQSPGTLSLSPGETATLSCRASQSFSSDLAWYQQKPGQAPRLLIYGASSRATGIPDRFSGSGSGTDFTLTISRLEPADFAVYYCQQYGSSPPVTFGGGTKVEIKGGGGSGGSGSGGGGSASGSGEVQLVESGGGLIQPGGSLRLSCAASGVIVSYNYMNWVRQAPGKGLEWVSVIYSGGSTFYADSVRGRFTISRDNSKNTLYLQMNSLRAEDTAVYYCARDLGPAGAFDIWGLGTMVTVSSGGSSGQVQLVESGGGVVQPGRSLRLSCAASGFTLSSYGMHWVRQAPGKGLEWVAVISYDGSNKYYVDSVKGRFTISRDNSKNTLYLQMNSLRAEDTAVYYCRWAYWELLPDYYYGMDVWGQGTTVTVSSASGGSGDKTHTCPPCPAPELLGGPSVFLFPPKPKDTLMISRTPEVTCVVVDVSHEDPEVKFNWYVDGVEVHNAKTKPREEQYNSYVVSVLTVLHQDWLNGKEYKCKVSNKALPAPIEKTISKAKGQPREPQVYTLPPCRDELTKNQVSLWCLVKGFYPSDIAVEWESNGQPENNYKTTPPVLDSDGSFFKKLTVDKSRWQQGNVFSCSVLHEALHSHYTQKSLSLSPG
chain 2: EIVLTQSPGTLSLSPGETATLSCRASQSFSSDLAWYQQKPGQAPRLLIYGASSRATGIPDRFSGSGSGTDFTLTISRLEPADFAVYYCQQYGSSPPVTFGGGTKVEIKGGSSGDTVMTQSPLSLPVTPGEPASISCRSSQSLLNSNGYNYLDWYVQKPGQSPQLLIYLGSNRASGVPDRFSGSGSGTDFTLKISRVEAEDVGVYYCMQPLQTPLFTFGPGTKVEIKGGGGSGGSGSGGGGSASGSGQVTLRESGPALVKPTQTLTLTCTFSGFSLSTRGVCVSWIRQPPGKALEWLAFIDWDDDKYYNTSLKTRLTISKDTSKNQVVLTMTNVHPVDTATYYCARISSHHGSSWCTTFDYWGQGALVTVSAGGSSGEVQLVESGGGLIQPGGSLRLSCAASGVIVSYNYMNWVRQAPGKGLEWVSVIYSGGSTFYADSVRGRFTISRDNSKNTLYLQMNSLRAEDTAVYYCARDLGPAGAFDIWGLGTMVTVSSASGGSGDKTHTCPPCPAPELLGGPSVFLFPPKPKDTLMISRTPEVTCVVVDVSHEDPEVKFNWYVDGVEVHNAKTKPREEQYNSYVVSVLTVLHQDWLNGKEYKCKVSNKALPAPIEKTISKAKGQPREPQVCTLPPSRDELTKNQVSLSCAVKGFYPSDIAVEWESNGQPENNYKTTPPVLDSDGSFFLVSKLTVDKSRWQQGNVFSCSVLHEALHSHYTQKSLSLSPG
IC50, pseudovirus neutralization [8]: 0.0332 µg/mL | IC80, pseudovirus neutralization [8]: 0.0382 µg/mL | IC50, pseudovirus neutralization [9]: 0.00547 µg/mL | IC80, pseudovirus neutralization [9]: 0.0239 µg/mL

B6: MX1041 (bispecific antibody)
chain: B5 chain 1 with C628S, W640T
IC80, pseudovirus neutralization [10]: 0.0457 µg/mL

B7: MX1042 (bispecific antibody)
chain: DTVMTQSPLSLPVTPGEPASISCRSSQSLLNSNGYNYLDWYVQKPGQSPQLLIYLGSNRASGVPDRFSGSGSGTDFTLKISRVEAEDVGVYYCMQPLQTPLFTFGPGTKVEIKGGSSGEIVLTQSPGTLSLSPGETATLSCRASQSFSSDLAWYQQKPGQAPRLLIYGASSRATGIPDRFSGSGSGTDFTLTISRLEPADFAVYYCQQYGSSPPVTFGGGTKVEIKGGGGSGGSGSGGGGSASGSGEVQLVESGGGLIQPGGSLRLSCAASGVIVSYNYMNWVRQAPGKGLEWVSVIYSGGSTFYADSVRGRFTISRDNSKNTLYLQMNSLRAEDTAVYYCARDLGPAGAFDIWGLGTMVTVSSGGSSGQVTLRESGPALVKPTQTLTLTCTFSGFSLSTRGVCVSWIRQPPGKALEWLAFIDWDDDKYYNTSLKTRLTISKDTSKNQVVLTMTNVHPVDTATYYCARISSHHGSSWCTTFDYWGQGALVTVSAASGGSGDKTHTCPPCPAPELLGGPSVFLFPPKPKDTLMISRTPEVTCVVVDVSHEDPEVKFNWYVDGVEVHNAKTKPREEQYNSYVVSVLTVLHQDWLNGKEYKCKVSNKALPAPIEKTISKAKGQPREPQVYTLPPSRDELTKNQVSLTCLVKGFYPSDIAVEWESNGQPENNYKTTPPVLDSDGSFFKKLTVDKSRWQQGNVFSCSVLHEALHSHYTQKSLSLSPG
IC80, pseudovirus neutralization [10]: 0.0122 µg/mL
